Data: US11390664B2, “Antibodies that potently neutralize hepatitis B virus and uses thereof” (priority 2015, dated 2022)

How the values were obtained:
[1] = test system: HBsAg of the 10 HBV genotypes A, B, C, D, E, F, G, H, I, and J; assay: Flow cytometry binding to Hep2 cells transfected with HBsAg genotypes; settings: 5 μg/ml; permeabilized transfected Hep2 cells
HBV = settings: week 3 and week 6 of treatment (weeks 15 and 18 post-infection); 1 mg/kg i.p. twice per week

## HBC34: IgG1-type fully human monoclonal antibody against HBsAg antigenic loop; VH SEQ ID NO: 41, VL SEQ ID NO: 42
[1]
  recognition of the 10 HBV HBsAg genotypes: recognized all 10 HBV HBsAg genotypes
HBV
  HBV titer: decreased
  levels of blood circulating HBsAg: decreased
